Literature values as cited in US4868155A, “Dipeptidyl 4-0-,6-0-acyl-2-amino-2-deoxy-D-glucose compositions and methods of use in AIDS-immunocompromised human hosts” (Merck & Co., Inc., priority 1987, dated 1989).

Details: patients

With NC(=O)c1ncn([C@@H]2O[C@H](CO)[C@@H](O)[C@H]2O)n1 [Ribavirin, 1 8 D ribofuranosyl-1,2,4-triazole-3-carboxamide] as the compound, how does the “toxicity / side effects” value read?
Its value is “well tolerated”.
